In US7501399B2, “Immunoeffector compounds” (Corixa Corporation, priority 2000, dated 2009):

Test system: transfected P815S cells expressing the L^d-restricted epitope
Test: CTL activity of spleen cells from HBsAg immunized mice, four hour 51Cr-release assay (Example 5)

N—[(R)-3-Tetradecanoyloxytetradecanoyl]-(S)-2-pyrrolidinomethyl 2-Deoxy-4-O-phosphono-2-[(R)-3-tetradecanoyloxytetradecanoylamino]-3-O—[(R)-3-tetradecanoyloxytetradecanoyl]-β-D-glucopyranoside Triethylammonium Salt [RC-553]
Percent Specific Killing (Effector:Target Ratio) 6.25:1 (E:T 6.25:1, spleen cells 9 days post-vaccination, four day peptide incubation): 37%
Percent Specific Killing (Effector:Target Ratio) 12.5:1 (E:T 12.5:1, spleen cells 9 days post-vaccination, four day peptide incubation): 53%
Percent Specific Killing (Effector:Target Ratio) 25.1 (E:T 25.1 as printed, spleen cells 9 days post-vaccination, four day peptide incubation): 77%
Percent Specific Killing (Effector:Target Ratio) 50:1 (E:T 50:1, spleen cells 9 days post-vaccination, four day peptide incubation): 85%
CTL activity versus antigen only controls (Example 5, text): significantly elevated levels of CTL activity compared to the antigen only controls
